Compound potency records, mixed from different reports. Data source: NIAID ChemDB in PubChem.

Shared fields: tests in culture; organism: HIV-1; cell line: CEM + CEM-SS; read-out: EC50

ECn is the concentration giving n% inhibition of infection, replication or growth. Neighbouring rows are from separate reports. An empty or dashed field is not shown.

SMILES | strain | changes | read by | result
Cc1ccnc2c1NC(=O)c1cccnc1N2C1CC1 | HEPT-resistant (RT P236L) | RT-P236L | XTT | 0.02 µM
CCc1c(Sc2ccccn2)n(COCc2ccccc2)c(=O)[nH]c1=O | NL4-3 | RT-L74V | cytopathic effect / XTT | 0.018 µM
Cc1cn([C@H]2C[C@H](N=[N+]=[N-])[C@@H](CO)O2)c(=O)[nH]c1=O | Thiazolobenzimidazole-resistant (RT V108I) | RT-V108I | XTT | 0.04 µM
O=S1(c2ccccc2)=NC(=S)Nc2ccccc21 | SK1 |  | cytopathic effect / XTT | 0.99 µM
Cc1cc(-c2ccc(N=Nc3ccc4c(S(=O)(=O)O)cc(S(=O)(=O)O)c(N)c4c3O)c(C)c2)ccc1N=Nc1ccc2c(S(=O)(=O)O)cc(S(=O)(=O)O)c(N)c2c1O | RF |  | cytopathic effect / XTT | 20 µM
Cc1occc1C(=S)Nc1ccc(Cl)c(/C=N/OC(C)(C)C)c1 | Costatolide-resistant (RT L100I T139I) | RT-L100I T139I | XTT | 2.6 µM
O=S1(c2ccccc2)=NC(SSC2=Nc3ccc(Cl)cc3S(=O)(c3ccccc3)=N2)=Nc2ccc(Cl)cc21 | IIIB |  | cytopathic effect / XTT | >6.9 µM
O=S(=O)(c1ccccc1)c1ccccc1 | IIIB |  | cytopathic effect / XTT | 0.65 µM
Fc1cccc(F)c1C1SCc2nc3ccccc3n21 | LAV |  | cytopathic effect / XTT | 0.52 µM
CCc1c(C(=O)c2cc(C)cc(C)c2)n(CC2CC=CC2)c(=O)[nH]c1=O | NL4-3 | RT-V179D | cytopathic effect / XTT | 0.001 µM
CCCc1cc(=O)oc2c3c(c4c(c12)OC(C)(C)C=C4)O[C@H](C)[C@@H](C)[C@@H]3O | IIIB HEPT-resistant (RT P236L) | RT-P236L | cytopathic effect / XTT | 1.7 µM
CCCc1cc(=O)oc2c3c(c4c(c12)OC(C)(C)C=C4)O[C@@H](C)[C@H](C)[C@@H]3O | Costatolide-resistant (RT Y188H) | RT-Y188H | XTT | >27 µM
Cc1ccnc2c1NC(=O)c1cccnc1N2C1CC1 | NL4-3 (RT V179D) | RT-V179D | cytopathic effect / XTT | 0.03 µM
Cc1cn([C@H]2C[C@H](N=[N+]=[N-])[C@@H](CO)O2)c(=O)[nH]c1=O | 4XAZT+Y181C (RT D67N K70R Y181C T215Y K219Q) | RT-D67N K70R Y181C T215Y K219Q | cytopathic effect / XTT | 0.04 µM
CN1N=C(N)c2cn([C@@H]3O[C@H](COP(=O)(O)O)[C@@H](O)[C@H]3O)c3ncnc1c23 | KELL 40 |  | XTT | >2.8 µM
Cc1ccnc2c1NC(=O)c1cccnc1N2C1CC1 | NL4-3 | RT-V108I | cytopathic effect / XTT | 0.06 µM
CCCc1cc(=O)oc2c3c(c4c(c12)OC(C)(C)C=C4)O[C@H](C)[C@@H](C)[C@@H]3O | NL4-3 | RT-Y181C | XTT | 0.02 µM
CC1=C(C(=O)Nc2ccc(Cl)c(C(=O)OC(C)C)c2)SCCO1 | IIIB |  | cytopathic effect / XTT | 0.25 µM
Cc1cn([C@H]2C[C@H](N=[N+]=[N-])[C@@H](CO)O2)c(=O)[nH]c1=O | 214 |  | cytopathic effect / MTT | 0.01 µM
Cc1occc1C(=S)Nc1ccc(Cl)c(/C=N/OC(C)(C)C)c1 | Calanolide A-resistant (RT T139I) | RT-T139I | cytopathic effect / XTT | 0.3 µM
Cc1cn([C@H]2C[C@H](N=[N+]=[N-])[C@@H](CO)O2)c(=O)[nH]c1=O | IIIB |  | cytopathic effect / XTT | 0.0033 µM
C/C=C/CSc1cc(NC(=S)c2ccsc2C)ccc1Cl | UC38-RS (RT-Y181C) | RT-Y181C | cytopathic effect / XTT | >2 µM
Cc1cn([C@H]2C[C@H](N=[N+]=[N-])[C@@H](CO)O2)c(=O)[nH]c1=O | 214 |  | cytopathic effect / XTT | 0.009 µM

2 of the rows above, restated:

SMILES | strain | changes | read by | result
Cc1ccnc2c1NC(=O)c1cccnc1N2C1CC1 | NL4-3 (RT V179D) | RT-V179D | cytopathic effect / XTT | 0.03 µM
Fc1cccc(F)c1C1SCc2nc3ccccc3n21 | LAV |  | cytopathic effect / XTT | 0.52 µM